Assay results as given in ChEMBL document CHEMBL4017475, “Discovery of benzophosphadiazine drug candidate IDX375: A novel hepatitis C allosteric NS5B RdRp inhibitor” (2017).

Columns and labels:
[1] = test system: Hepatitis C virus; experiment: Antiviral activity against Hepatitis C virus by luciferase assay
[2] = Inhibition of Hepatitis C virus 1b NS5B RNA-dependent RNA polymerase by cell based assay
[3] = Inhibition of Hepatitis C virus 1a NS5B RNA-dependent RNA polymerase by cell based assay

Row | SMILES | EC50 [1] | IC50 [2] | IC50 [3]
1 | CCOP1(=O)N=C(C2=C(O)C(C(C)(C)C)N(Cc3ccccc3)C2=O)Nc2ccc(NS(C)(=O)=O)cc21 (configuration not stated) | 90 nM | 8 nM | 57 nM
2 | CCOP1(=O)N=C(C2=C(O)C(CCO)N(CCC(C)(C)C)C2=O)Nc2ccc(NS(C)(=O)=O)cc21 (configuration not stated) | > 8300 nM | 55 nM | 1310 nM
3 | CCOP1(=O)N=C(C2=C(O)C(C(C)(C)C)N(CCC(C)(C)C)C2=O)Nc2ccc(C)cc21 (configuration not stated) | 4400 nM | 451 nM | > 10000 nM
4 | CCOP1(=O)N=C(C2=C(O)C(Cc3cccs3)N(CCC(C)(C)C)C2=O)Nc2ccc(NS(C)(=O)=O)cc21 (configuration not stated) | > 8300 nM | 200 nM | 972 nM
5 | CCOP1(=O)N=C(C2=C(O)C(C(C)C)N(CCC(C)(C)C)C2=O)Nc2ccc(NS(C)(=O)=O)cc21 (configuration not stated) | 610 nM | 24 nM | 227 nM
6 | CCOP1(=O)N=C(C2=C(O)C(C(C)(C)C)N(Cc3ccc(F)c(C)c3)C2=O)Nc2ccc(NS(C)(=O)=O)cc21 (configuration not stated) | 15 nM | 5 nM | 17 nM
7 | CCOP1(=O)N=C(C2=C(O)C(C(C)(C)C)N(CCC(C)(C)C)C2=O)Nc2ccc(C(F)(F)F)cc21 (configuration not stated) | > 8300 nM | > 10000 nM | –
8 | CCOP1(=O)N=C(C2=C(O)C(C(C)(C)C)N(CCC(C)(C)C)C2=O)Nc2ccc(N)cc21 (configuration not stated) | 3270 nM | 114 nM | 3730 nM
9 | CCOP1(=O)N=C(C2=C(O)C(C)(C)N(CCC(C)(C)C)C2=O)Nc2ccc(NS(C)(=O)=O)cc21 (configuration not stated) | > 8300 nM | 1370 nM | –
10 | CCOP1(=O)N=C(C2=C(O)C(C3CC3)N(CCC(C)(C)C)C2=O)Nc2ccc(NS(C)(=O)=O)cc21 (configuration not stated) | 1200 nM | 12 nM | 206 nM
11 | CCOP1(=O)N=C(C2=C(O)C(C(C)(C)C)N(CCC(C)(C)C)C2=O)Nc2ccccc21 (configuration not stated) | 3420 nM | 44 nM | 3530 nM
12 | CCOP1(=O)N=C(C2=C(O)C(C)(CC(C)C)N(CCC(C)(C)C)C2=O)Nc2ccc(NS(C)(=O)=O)cc21 (configuration not stated) | 4390 nM | 64 nM | 1360 nM
13 | CCO[P@@]1(=O)N=C(C2=C(O)[C@H](C(C)(C)C)N(CCC(C)(C)C)C2=O)Nc2ccc(NS(C)(=O)=O)cc21 | 1390 nM | 701 nM | 1760 nM
14 | CCOP1(=O)N=C(C2=C(O)C(C(C)(C)C)N(CCC(C)(C)C)C2=O)Nc2ccc(C(N)=O)cc21 (configuration not stated) | 7930 nM | 279 nM | 2950 nM
15 | CCOP1(=O)N=C(C2=C(O)C(C(C)(C)C)N(Cc3ccc(F)c(OC)c3)C2=O)Nc2ccc(NS(C)(=O)=O)cc21 (configuration not stated) | 39 nM | 9 nM | 20 nM
16 | CCOP1(=O)N=C(C2=C(O)C(C(C)(C)C)N(CCC(C)(C)C)C2=O)Nc2ccc(NS(N)(=O)=O)cc21 (configuration not stated) | 56 nM | 8 nM | –
17 | CCOP1(=O)N=C(C2=C(O)C(c3ccccc3)N(CCC(C)(C)C)C2=O)Nc2ccc(NS(C)(=O)=O)cc21 (configuration not stated) | 5510 nM | 40 nM | 728 nM
18 | CCOP1(=O)N=C(C2=C(O)C(C(C)(C)C)N(Cc3ccc(F)cc3)C2=O)Nc2ccc(NS(C)(=O)=O)cc21 (configuration not stated) | 44 nM | 15 nM | 31 nM
19 | CCOP1(=O)N=C(C2=C(O)C(C(C)(C)C)N(Cc3ccc(F)c(F)c3)C2=O)Nc2ccc(NS(C)(=O)=O)cc21 (configuration not stated) | 18 nM | 5 nM | 15 nM
20 | CCOP1(=O)N=C(C2=C(O)C(C)N(CCC(C)(C)C)C2=O)Nc2ccc(NS(C)(=O)=O)cc21 (configuration not stated) | 6950 nM | 21 nM | 961 nM
21 | CCOP1(=O)N=C(C2=C(O)C(C(C)(C)C)N(Cc3cncs3)C2=O)Nc2ccc(NS(C)(=O)=O)cc21 (configuration not stated) | > 8300 nM | 65 nM | 1000 nM
22 | CCOP1(=O)N=C(C2=C(O)C(C(C)(C)C)N(CCC(C)(C)C)C2=O)Nc2ccc(OCC(N)=O)cc21 (configuration not stated) | 130 nM | 17 nM | 182 nM
23 | CCOP1(=O)N=C(C2=C(O)C(C(C)(C)C)N(Cc3cccc(Cl)c3)C2=O)Nc2ccc(NS(C)(=O)=O)cc21 (configuration not stated) | 162 nM | 6 nM | 104 nM

Row | SMILES | EC50 [1] | IC50 [2] | IC50 [3]
24 | CCO[P@]1(=O)N=C(C2=C(O)[C@@H](C(C)(C)C)N(CCC(C)(C)C)C2=O)Nc2ccc(NS(C)(=O)=O)cc21 | 1400 nM | 12 nM | 1760 nM
25 | CCOP1(=O)N=C(C2=C(O)C3(CCCCC3)N(CCC(C)(C)C)C2=O)Nc2ccc(NS(C)(=O)=O)cc21 (configuration not stated) | 5510 nM | 187 nM | 5330 nM
26 | CCOP1(=O)N=C(C2=C(O)C(C(C)(C)C)N(CCC(C)C)C2=O)Nc2ccc(NS(C)(=O)=O)cc21 (configuration not stated) | 95 nM | 10 nM | 40 nM
27 | CCOP1(=O)N=C(C2=C(O)C(Cc3cscn3)N(CCC(C)(C)C)C2=O)Nc2ccc(NS(C)(=O)=O)cc21 (configuration not stated) | > 8300 nM | 490 nM | 2600 nM
28 | CCOP1(=O)N=C(C2=C(O)C(Cc3c[nH]c4ccccc34)N(CCC(C)(C)C)C2=O)Nc2ccc(NS(C)(=O)=O)cc21 (configuration not stated) | > 8300 nM | 300 nM | 1140 nM
29 | CCOP1(=O)N=C(C2=C(O)C(C(C)(C)C)N(CCC(C)(C)C)C2=O)Nc2ccc(F)cc21 (configuration not stated) | 4800 nM | 116 nM | 3610 nM
30 | C#CCCCN1C(=O)C(C2=NP(=O)(OCC)c3cc(NS(C)(=O)=O)ccc3N2)=C(O)C1C(C)(C)C (configuration not stated) | 1000 nM | 7 nM | 167 nM
31 | CCOP1(=O)N=C(C2=C(O)C(C(C)(C)C)N(Cc3cnn(C)c3)C2=O)Nc2ccc(NS(C)(=O)=O)cc21 (configuration not stated) | > 8300 nM | 91 nM | 8130 nM
32 | CCOP1(=O)N=C(C2=C(O)C(C)(C(F)(F)F)N(CCC(C)(C)C)C2=O)Nc2ccc(NS(C)(=O)=O)cc21 (configuration not stated) | > 8300 nM | 183 nM | > 10000 nM
33 | CCOP1(=O)N=C(C2=C(O)C(C(C)(C)C)N(CCC(C)(C)C)C2=O)Nc2ccc(N(C(C)=O)S(C)(=O)=O)cc21 (configuration not stated) | 19 nM | 65 nM | 817 nM
34 | CCOP1(=O)N=C(C2=C(O)C(CC(C)C)N(CCC(C)(C)C)C2=O)Nc2ccc(NS(C)(=O)=O)cc21 (configuration not stated) | 842 nM | 12 nM | 247 nM
35 | CCOP1(=O)N=C(C2=C(O)C(C(C)(C)C)N(CCC(C)(C)C)C2=O)Nc2ccc(OC)cc21 (configuration not stated) | 6160 nM | 707 nM | –
36 | CCOP1(=O)N=C(C2=C(O)C(CCOCc3ccccc3)N(CCC(C)(C)C)C2=O)Nc2ccc(NS(C)(=O)=O)cc21 (configuration not stated) | > 8300 nM | 21 nM | 4540 nM
37 | CCOP1(=O)N=C(C2=C(O)C3(CC4CCC3C4)N(CCC(C)(C)C)C2=O)Nc2ccc(NS(C)(=O)=O)cc21 (configuration not stated) | 185 nM | 6 nM | 186 nM
38 | CCOP1(=O)N=C(C2=C(O)C(C)(CC)N(CCC(C)(C)C)C2=O)Nc2ccc(NS(C)(=O)=O)cc21 (configuration not stated) | > 8300 nM | 800 nM | –
39 | CCO[P@@]1(=O)N=C(C2=C(O)[C@@H](C(C)(C)C)N(CCC(C)(C)C)C2=O)Nc2ccc(NS(C)(=O)=O)cc21 | 568 nM | 14 nM | 324 nM
40 | CCOP1(=O)N=C(C2=C(O)C(C(C)(C)C)N(CCC(C)(C)C)C2=O)Nc2ccc(NS(C)(=O)=O)cc21 (configuration not stated) | 9 nM | 12 nM | 59 nM
41 | CCOP1(=O)N=C(C2=C(O)C(C(C)(C)C)N(Cc3ccc(F)c(Cl)c3)C2=O)Nc2ccc(NS(C)(=O)=O)cc21 (configuration not stated) | 31 nM | 6 nM | 28 nM
42 | CCOP1(=O)N=C(C2=C(O)C(C3CCCCC3)N(CCC(C)(C)C)C2=O)Nc2ccc(NS(C)(=O)=O)cc21 (configuration not stated) | 216 nM | 7 nM | 97 nM
43 | CCOP1(=O)N=C(C2=C(O)C(C(C)(C)C)N(CCC3CC3)C2=O)Nc2ccc(NS(C)(=O)=O)cc21 (configuration not stated) | 126 nM | 14 nM | 80 nM
44 | CCOP1(=O)N=C(C2=C(O)C(C3CCCC3)N(CCC(C)(C)C)C2=O)Nc2ccc(NS(C)(=O)=O)cc21 (configuration not stated) | 55 nM | 8 nM | 67 nM
45 | CCOC(=O)CC1C(O)=C(C2=NP(=O)(OCC)c3cc(NS(C)(=O)=O)ccc3N2)C(=O)N1CCC(C)(C)C (configuration not stated) | > 8300 nM | 915 nM | –
46 | CCOP1(=O)N=C(C2=C(O)C(C(C)(C)C)N(CCC(C)(C)C)C2=O)Nc2ccc(C#N)cc21 (configuration not stated) | 3180 nM | 85 nM | 4960 nM
